Laboratory results reported in US20250243261A1.

target: SARS-CoV-2 Beta Spike on pseudotyped lentivirus (SARS-CoV-2 Beta variant); experiment: cell-based or functional assay

C143 VL G53V IgG (antibody) gave a fold improvement in pseudovirus neutralization vs wildtype of 30 fold.

target: SARS-CoV-2 Wuhan Spike on pseudotyped lentivirus (SARS-CoV-2 Wuhan-Hu-1) (UniProt P0DTC2); experiment: cell-based or functional assay

Going from “LY-1404 VH S62N / VL Q39K IgG (antibody)” to LY-1404 VL T5Q IgG (antibody), the Wuhan pseudotyped lentivirus IC50, fold change vs WT falls from 2.8 fold to 1.2 fold.

Compared with LY-1404 VL K44E IgG (antibody), LY-1404 VH S62N IgG (antibody) is higher in Wuhan pseudotyped lentivirus IC50, fold change vs WT: 1.2 fold for the first, 1.9 fold for the second.

First: LY-1404 VH D88Q_V90S_S62N_V81T_F24Y_I31T_H99Y_T70S IgG (antibody)
Second: LY-1404 VH D88Q_V90S_S62N_V81T_F24Y_H99Y_T70S IgG (antibody)
The Wuhan pseudotyped lentivirus IC50, fold change vs WT of the first is higher: 0.6 fold for the first, 0.5 fold for the second.

Compared with LY-1404 VH D88Q IgG (antibody), “LY-1404 VH D88Q_V90S_S62N_V81T_F24Y_I31T_H99Y IgG (antibody)” is lower in Wuhan pseudotyped lentivirus IC50, fold change vs WT: 2.2 fold for the first, 0.5 fold for the second.

First: LY-1404 VH D88Q_V90S_S62N_V81T_F24Y_I31T_T70S IgG (antibody)
Second: LY-1404 VH I31T IgG (antibody)
The Wuhan pseudotyped lentivirus IC50, fold change vs WT of the first is lower: 0.9 fold for the first, 1.3 fold for the second.

First: LY-1404 VL A98I IgG (antibody)
Second: LY-1404 VH V81T IgG (antibody)
The Wuhan pseudotyped lentivirus IC50, fold change vs WT of the first is higher: 1.8 fold for the first, 1.4 fold for the second.

Compared with “LY-1404 VH T70S / VL Q39K IgG (antibody)”, LY-1404 VL K47E IgG (antibody) is lower in Wuhan pseudotyped lentivirus IC50, fold change vs WT: 1.8 fold for the first, 1.4 fold for the second.

First: LY-1404 VH V90S / VL E85A IgG (antibody)
Second: LY-1404 VH V90S / VL Q39K IgG (antibody)
The Wuhan pseudotyped lentivirus IC50, fold change vs WT of the first is lower: 2 fold for the first, 3.5 fold for the second.

Going from LY-1404 VH F24Y IgG (antibody) to LY-1404 VL Q39K IgG (antibody), the Wuhan pseudotyped lentivirus IC50, fold change vs WT rises from 0.9 fold to 1.4 fold.

Compared with LY-1404 VL F51Y IgG (antibody), “LY-1404 VH T70S / VL E85A IgG (antibody)” is higher in Wuhan pseudotyped lentivirus IC50, fold change vs WT: 1.2 fold for the first, 2.3 fold for the second.

Going from LY-1404 VH V90S IgG (antibody) to LY-1404 VH T70S IgG (antibody), the Wuhan pseudotyped lentivirus IC50, fold change vs WT falls from 1.7 fold to 0.9 fold.

Compared with LY-1404 VH I105L IgG (antibody), LY-1404 VL M49L IgG (antibody) is lower in Wuhan pseudotyped lentivirus IC50, fold change vs WT: 2.2 fold for the first, 1.4 fold for the second.

Going from LY-1404 VH H99Y IgG (antibody) to LY-1404 VL Q6S IgG (antibody), the Wuhan pseudotyped lentivirus IC50, fold change vs WT rises from 0.6 fold to 1.6 fold.

First: LY-1404 VH D88Q_V90S_S62N_V81T_I31T_H99Y_T70S IgG (antibody)
Second: LY-1404 VH S62N / VL E85A IgG (antibody)
The Wuhan pseudotyped lentivirus IC50, fold change vs WT of the first is lower: 1.3 fold for the first, 2.3 fold for the second.

target: SARS-CoV-2 BA.1 Spike on pseudotyped lentivirus (SARS-CoV-2 BA.1 variant); experiment: cell-based or functional assay

First: SA58 VH Q82T / VL M4V IgG (antibody)
Second: SA58 VL M4V IgG (antibody)
The BA.1 pseudotyped lentivirus IC50, fold change vs WT of the first is lower: 0.9 fold for the first, 2.2 fold for the second.

Going from SA58 VH T53L / VL N95V IgG (antibody) to SA58 VH A61S IgG (antibody), the BA.1 pseudotyped lentivirus IC50, fold change vs WT falls from 2.3 fold to 1 fold.

Compared with SA58 VH T53L-A61S IgG (antibody), SA58 VL S85A IgG (antibody) is higher in BA.1 pseudotyped lentivirus IC50, fold change vs WT: 1.8 fold for the first, 2.7 fold for the second.

Going from SA58 VH T53L IgG (antibody) to SA58 VL N95V IgG (antibody), the BA.1 pseudotyped lentivirus IC50, fold change vs WT rises from 1.1 fold to 2.4 fold.

First: SA58 VH T53L / VL M4V IgG (antibody)
Second: SA58 VH A61S / VL M4V IgG (antibody)
The BA.1 pseudotyped lentivirus IC50, fold change vs WT of the first is lower: 1.1 fold for the first, 1.4 fold for the second.

SA58 VH A61S / VL N95V IgG (antibody) and SA58 VH Q82T / VL N95V IgG (antibody) are the same in BA.1 pseudotyped lentivirus IC50, fold change vs WT: 2.2 fold for the first, 2.2 fold for the second.

SA58 VL S54T IgG (antibody) was tested, and the BA.1 pseudotyped lentivirus IC50, fold change vs WT was 1.8 fold.
